Pooled drug test results. Numbers come from NIAID ChemDB, via PubChem.

Common to all: whole-cell or culture tests; species: Mycobacterium tuberculosis

Lines come from different laboratories, so protocols vary. For "inactive" no cut-off is given. ECn is the concentration giving n% inhibition of infection, replication or growth. A number after MIC or MFC names an inhibition level or a share of isolates. Inhibition is in % at the dose shown (toxicity tests: loss of growth or viability). An empty or dashed field is not shown. MIC bound comes from a single tested concentration. Two numbers with a dash give a range or band.

smiles,read by,cells,dose,strain or isolate,conditions,changes,endpoint,value
O=[N+]([O-])c1ccc(NC(=S)Nc2ncc(C3CCC3)o2)cc1,agar,,,MDR clinical isolate,,,MIC,0.62 µM
CCCCCc1nnc2c3c(c4cc(Br)ccc4n12)-c1ccccc1C3=O,BACTEC / radiometric,,6.25 µg/mL,H37Rv,,,inhibition,55%
O=C(/C=C/c1ccncc1)c1ccco1,,,12.5 µg/mL,H37Rv,,,inhibition,0%
Cn1c2ccccc2n2c(=O)c(-c3ccc(O)cc3)nnc12,resazurin,,6.25 µg/mL,H37Rv,,,inhibition,6%
O=C(/C=C/C(=O)N1C/C(=C\c2ccccc2)C(=O)/C(=C/c2ccccc2)C1)Nc1ccc(Cl)cc1,,,,H37Rv,,,EC50,>6.25 µg/mL
C=C(C)C(C)(C)CC[C@@H](C)C1CC[C@@]2(C)C3CC[C@@H]4C(C)(C)C(=O)CC[C@]4(C)C3=CC[C@]12C,,,,H37Rv,,,MIC,64 µg/mL
O=C(O)C1CCCCC1OC1CCCCC1O,,,,,,,MIC,0.5 µg/mL
Cc1cc2oc(=O)c(C3=NN(c4ccccc4)C(c4ccccc4-c4ccccn4)C3)c(O)c2cc1C,agar,,,H37Rv,,,MIC90,>6.25 µg/mL
CCOC(=O)c1c(N)sc2sc(-c3cccc4ccccc34)cc12,,,,H37Rv,,,MIC,1.1 µM
NC(=O)c1cnccn1,,,,Isolate 98-34,,,MIC,900 µg/mL
CC1(O)c2ccccc2C2c3cc(Br)ccc3-n3nnnc3C21,BACTEC / radiometric,,6.25 µg/mL,H37Rv,,,inhibition,51%
Clc1ccccc1C1Cc2nc3ccccc3c(-c3ccccc3)c2S1,agar,,,H37Rv,,,MIC,8.39 µM
CC(=O)NNc1nc(C)c(C(=O)NNC(=O)C(=O)Nc2ccc(C)c(C)c2)s1,BACTEC,,,H37Rv,,,MIC bound,>12.5 µg/mL
O=C(CCN1C(=O)/C(=C/c2ccc(Cl)cc2)SC1=S)NNC(=O)c1ccccc1,,,,H37Rv,,,MIC,56.18 µM
Cc1ccc(NC(=O)Oc2cc(C)c(I)cc2C)cc1Cl,BACTEC,,,H37Rv,,,MIC bound,>12.5 µg/mL
C[C@H]1NCc2cc(-c3ccc4c(=O)c(C(=O)O)cn(C5CC5)c4c3OC(F)F)ccc21,,,,3 isolates,,,MIC,2–4 µg/mL
COc1cc(/C=C2\N=C(c3cc(OC)c(OC)c(OC)c3)OC2=O)ccc1O,BACTEC,,12.5 µg/mL,H37Rv,,,inhibition,-10%
COc1cc(OC)c2c(c1)OC(c1cc(OC)c(OC)c(OC)c1)CC2=O,,,12.5 µg/mL,,,,inhibition,0%
CN(C)c1ccc(N=Nc2ccccn2)cc1,resazurin,,6.25 µg/mL,H37Rv,,,inhibition,48%
O=C(CCN1C(=O)/C(=C/c2ccc3c(c2)OCO3)SC1=S)NNC(=O)c1ccncc1,,,,H37Rv,,,MIC,54.82 µM
O=c1oc2ccccc2c(O)c1C1=NN(c2ccccc2)C(c2ccc(Cl)cc2Cl)C1,agar,,,INHR-MTB,,Isoniazid-resistant,MIC90,21.78 µg/mL
Clc1ccc(C2Cc3nc4ccc(Cl)cc4c(-c4ccccc4)c3S2)c(Cl)c1,agar,,,H37Rv,,,MIC,0.9 µM
Cc1c(N2C[C@@H]3CCCN[C@@H]3C2)c(F)cn2c(=O)c(C(=O)O)cc(C3CC3)c12,,,,ATCC35838,,,MIC,0.031 µg/mL
N#Cc1c(N)sc2sc(-c3cccc4ccccc34)cc12,,,,MDR-TB,multidrug-resistant,,MIC,5.1 µM
CCCCCCCC(=O)NNC(=O)CCCCCCC,resazurin,,,H37Rv,,,MIC bound,>6.25 µg/mL
NNC(=O)c1ccncc1,agar,,,H37Rv,,,MIC90,0.73 µg/mL
O=Nc1c2c3nn[nH]n3c3ccc(Br)cc3c-2c2ccccc12,BACTEC / radiometric,,6.25 µg/mL,H37Rv,,,inhibition,43%
CCN(CC)CCN(C)c1ccc(CO)c2c1C(=O)c1ccccc1S2=O,BACTEC,,,H37Rv,,,MIC bound,≤12.5 µg/mL
Cc1ccc(C2Cc3nc4ccccc4c(-c4ccccc4)c3S2)cc1,agar,,,H37Rv,,,MIC,35.36 µM
O=C(Nc1ccc(C(F)(F)F)cc1[N+](=O)[O-])C(=O)Nn1c(=S)[nH]c2ccccc2c1=O,BACTEC,,12.5 µg/mL,H37Rv,,,inhibition,8%
CC[C@@H](CO)NCCN[C@@H](CC)CO,,,,17 strains,,,MIC,1.9–7.5 µg/mL
O=C(CN1CCN(c2cc3c(cc2F)c(=O)c(C(=O)O)cn3C2CC2)CC1)c1cccs1,,,6.25 µg/mL,H37Rv,,,inhibition,96%
Cc1ccc(/C=C/C(=O)N2C/C(=C\c3ccccc3)C(=O)/C(=C/c3ccccc3)C2)cc1,,,6.25 µg/mL,H37Rv,,,inhibition,8%
COc1cccc2c1C(=O)c1c(O)c3c(c(O)c1C2=O)C[C@@](O)(C(=O)COC(=O)c1cccnc1)C[C@@H]3O[C@H]1C[C@H](N)[C@H](O)[C@H](C)O1,BACTEC,,,H37Rv,,,MIC bound,>12.5 µg/mL
Cc1cc2oc(=O)c(C(=O)/C=C/c3ccccn3)c(O)c2cc1C,agar,,,H37Rv,,,MIC90,>6.25 µg/mL
O=C1/C(=C/c2ccccc2)CN(C(=O)/C=C/c2ccc(Cl)c(Cl)c2)C/C1=C\c1ccccc1,,,6.25 µg/mL,H37Rv,,,inhibition,2%
C[C@H](N)C(=O)N[C@@H]1[C@H]2C(=C(O)C[C@@H](O)[C@@H]2O)C(=O)O[C@]1(C)C(Cl)Cl,BACTEC,,,H37Rv,,,MIC bound,≤12.5 µg/mL
Nc1ccccc1/C=C/C(=O)c1ccc(Br)cc1O,,,,,,,EC50,>12.5 µg/mL
CC1(n2nc(-c3ccccc3)n(-c3ccccc3)c2=O)CSC1,BACTEC,,,H37Rv,,,MIC bound,>12.5 µg/mL
COc1ccc(C2CC(=O)c3ccc(F)cc3O2)cc1,,,,,,,EC50,>12.5 µg/mL
C1CCC2C(C1)COC1CCCCC12,,,,,,,MIC,>0.1 µg/mL
O=C(CCN1C(=O)/C(=C/c2ccc(Cl)cc2)SC1=S)NNC(=O)c1cccnc1,,,,H37Rv,,,MIC,7.01 µM
Nc1cccc(-c2csc(NC(=O)c3ccc([N+](=O)[O-])o3)n2)c1,,,1 µM,H37Ra,,,inhibition,<0%
COc1c(Cc2ccc(Oc3ccccc3)cc2)cc2c(c1OC)CCNC2,,,,,,,MIC,0.13 µg/mL
COc1ccc(C2Oc3ccccc3C(=O)C2O)cc1,,,,H37Rv,,,EC50,>12.5 µg/mL
CCOC(=O)c1c(N)sc2sc(-c3ccc(Cl)cc3Cl)cc12,,,,H37Rv,,,MIC,8.4 µM
NNC(=O)c1ccncc1,broth dilution,,,12119,,Ofloxacin-resistant,MIC80,0.2 µM
O=C(/C=C/c1ccc(O)cc1O)c1c(O)c2ccccc2oc1=O,agar,,,INHR-MTB,,Isoniazid-resistant,MIC90,>6.25 µg/mL
COc1cc(/C=C2\SC(=S)N(CCC(=O)NNC(=O)c3cccc4ccccc34)C2=O)cc(OC)c1OC,,,,H37Rv,,,MIC,5.67 µM
Clc1ccc(C2Cc3nc4ccc(Cl)cc4c(-c4ccccc4)c3S2)cc1,agar,,,H37Rv,,,MIC,3.82 µM
O=C(NNS(=O)(=O)c1ccccc1)c1ccco1,BACTEC,,12.5 µg/mL,H37Rv,,,inhibition,25%
O=C(/C=C/c1ccccc1I)c1ccccc1O,,,,,,,EC50,>12.5 µg/mL
COc1cccc(-c2csc(NC(=O)c3ccc([N+](=O)[O-])cc3)n2)c1,,,10 µM,H37Ra,,,inhibition,<0%
COC(=O)C(=O)C(C(=O)OC)C(=O)C(=O)Nc1cc(Cl)c(C)cc1S(=O)(=O)O,BACTEC,,12.5 µg/mL,H37Rv,,,inhibition,-7%
CCOC(=O)c1c(N)sc2sc(-c3ccccc3)cc12,,,,MDR-TB,multidrug-resistant,,MIC,41.2 µM
CCOc1c(N=Nc2ccccc2Cl)c(C)nn1C(=S)S,BACTEC,,12.5 µg/mL,H37Rv,,,inhibition,11%
O=C(NCCOCCOCCNC(=O)c1ccc2c(c1)B(O)OC2)c1ccc2c(c1)B(O)OC2,visual reading / absorbance,,,H37Rv,,,MIC,1560 µM
COc1ccc(-c2csc(NC(=O)c3ccc([N+](=O)[O-])o3)n2)cc1,,,1 µM,H37Ra,,,inhibition,<0%
C=C1C(=O)C23C(CCC1[C@@H]2O)C12CO[C@]3(O)[C@@H](O)[C@@H]1C(C)(C)CC[C@@H]2O,BACTEC,,,H37Rv,,,MIC,≥12.5 µg/mL
NC(=O)CC1CCC(OC2CCCCC2)CC1,,,,,,,MIC,0.05 µg/mL
O=C1/C(=C\c2ccccc2)CN(C(=O)c2ccc(/C=C/C(=O)c3ccccc3)cc2)C/C1=C/c1ccccc1,,,,H37Rv,,,EC50,>6.25 µg/mL
COc1ccc(C2CC(=O)c3cc(C(=O)O)ccc3O2)cc1,,,12.5 µg/mL,,,,inhibition,2%
NC1C(=O)NC(=O)NC1=O,BACTEC,,12.5 µg/mL,H37Rv,,,inhibition,0%
CC1COc2c(N3CCN(C)CC3)c(F)cc3c(=O)c(C(=O)O)cn1c23,broth dilution,,,ATCC 27294,,,MIC80,0.7 µM
CCOC(=O)c1cc2c(=O)c3c(ccc4ccccc43)oc2n(C)c1=O,BACTEC,,12.5 µg/mL,H37Rv,,,inhibition,-24%
O=c1[nH]c2cc(C(F)(F)F)ccc2nc1CBr,,,12.5 µg/mL,,,,inhibition,inactive
c1ccc(Oc2cccc3ncccc23)cc1,,,,,,,MIC,>0.06 µg/mL
O=C1CC(c2cccc(Br)c2)Oc2ccccc21,,,,,,,EC50,<12.5 µg/mL
CCn1cc(C(=O)O)c(=O)c2cc(F)c(N3CCN(C/C(=N/OC)c4cccs4)CC3)cc21,,,,H37Rv,,,MIC,>6.25 µg/mL
CCOC(=O)C1=C(C)NC(SC)=NC1c1cn(-c2ccccc2)nc1-c1ccc(F)cc1,resazurin,VERO,6.25 µg/mL,H37Rv,,,inhibition,8%
Clc1ccc(C2Cc3nc4ccccc4c(-c4ccccc4)c3S2)cc1,agar,,,H37Rv,,,MIC,16.72 µM
FC(F)(F)c1ccccc1NC(=S)Nc1ncc(C2CCC2)o1,agar,,,H37Rv,,,MIC,0.14 µM
CCn1cc(C(=O)O)c(=O)c2cc(F)c(N3CCN(C/C(=N/O)c4ccco4)CC3)cc21,,,,H37Rv,,,MIC,>6.25 µg/mL
O=C1c2ccccc2-c2c1c(NCCO)nc1ccc(Br)cc21,BACTEC / radiometric,,6.25 µg/mL,H37Rv,,,inhibition,25%
O=C1C=C(Nc2cccc(Br)c2)c2ccccc2C1=O,resazurin,,,H37Rv,,,MIC bound,>6.25 µg/mL
Oc1ccccc1NC(=S)Nc1ncc(C2CCC2)o1,agar,,,MDR clinical isolate,,,MIC,10.81 µM
CC1(C)CC(N=c2cc3n(-c4ccc(Cl)cc4Cl)c4ccccc4nc-3cc2Nc2ccc(Cl)cc2Cl)CC(C)(C)N1,BACTEC,,0.6 µg/mL,H37Ra,,,inhibition,56%
CN[C@@H]1[C@@H](O)C(O[C@@H]2[C@@H](O)[C@H](OC3O[C@H](CN)[C@@H](O)[C@H](O)[C@H]3O)[C@@H](N)C[C@H]2NC(=O)[C@@H](O)CN)OC[C@]1(C)O,,,,OR100,,,MIC,>200 µg/mL
CCC(C)C(NC(=O)C(Cc1ccc(O)cc1)NC(=O)C(N)C(C)C)C(=O)NC(Cc1cnc[nH]1)C(=O)N1CCCC1C(=O)NC(Cc1ccccc1)C(=O)OC,BACTEC,,12.5 µg/mL,H37Rv,,,inhibition,-2%
OC1CCC(OC2CCCCC2O)CC1,,,,,,,MIC,0.13 µg/mL
O=C(O)c1cn(C2CC2)c2cc(N3CCN(C/C(=N/OCc4ccccc4)c4cccs4)CC3)c(F)cc2c1=O,,,6.25 µg/mL,H37Rv,,,inhibition,69%
Fc1ccc(C2Cc3nc4ccc(Cl)cc4c(-c4ccccc4)c3S2)cc1,agar,,,H37Rv,,,MIC,3.98 µM
O=C(CCN1C(=O)/C(=C/c2ccc([N+](=O)[O-])cc2)SC1=S)NNC(=O)c1cccc2ccccc12,,,,H37Rv,,,MIC,12.35 µM
O=C1/C(=C/c2ccccc2)CN(C(=O)c2ccc(/C=C/C(=O)c3ccc(Cl)cc3)cc2)C/C1=C\c1ccccc1,,,6.25 µg/mL,H37Rv,,,inhibition,0%
CO[C@H]1/C=C/O[C@@]2(C)Oc3c(C)c(O)c4c(O)c(c(/C=N/N5CCN(C)CC5)c(O)c4c3C2=O)NC(=O)/C(C)=C\C=C\[C@H](C)[C@H](O)[C@@H](C)[C@@H](O)[C@@H](C)[C@H](OC(C)=O)[C@@H]1C,broth dilution,,,35822,,Isoniazid-resistant,MIC80,0.04 µM
CC(=O)O[C@@H]1C[C@H]2O[C@@H]3C=C(C)CC[C@]3(C)[C@]1(C)[C@]21CO1,BACTEC,,12.8 µg/mL,H37Rv,,,inhibition,12%
O=C(/C=C/C(=O)N1C/C(=C\c2ccccc2)C(=O)/C(=C/c2ccccc2)C1)Nc1ccc([N+](=O)[O-])cc1,,,6.25 µg/mL,H37Rv,,,inhibition,98%